According to patent publication US10273235B2, “Compositions and methods for inhibiting β-lactamase” (LegoChem Biosciences, Inc., priority 2015, dated 2019):
Values joined by “and” are separate entries in the source; they are usually repeats but may differ in a detail not shown here. Identical values can stand only once.

How the values were obtained:
Assay type in all cases: cell-based
[1] = tested on: K. pneumoniae NDM-506; test: BLI potentiation MIC, K. pneumoniae NDM-506; settings: BLI fixed 4 ug/ml, incubation 19 h
[2] = tested on: K. pneumoniae 5576; test: BLI potentiation MIC, K. pneumoniae 5576 (SHV-11, CMY-2, DHA-1, TEM-1); settings: BLI fixed 4 ug/ml; incubation 19 h
[3] = tested on: K. pneumoniae 4006; test: BLI potentiation MIC, K. pneumoniae 4006 (SHV-12, CTX-M-15, TEM-1, OXA-9); settings: BLI fixed 4 ug/ml; incubation 19 h
[4] = tested on: K. pneumoniae 7586; test: BLI potentiation MIC, K. pneumoniae 7586; settings: BLI fixed 4 ug/ml; incubation 19 h
[5] = tested on: K. pneumoniae 6540; test: BLI potentiation MIC, K. pneumoniae 6540; settings: BLI fixed 4 ug/ml; incubation 19 h
[6] = tested on: K. pneumoniae 6839; test: BLI potentiation MIC, K. pneumoniae 6839 (SHV-11, SHV-12, DHA-1); settings: BLI fixed 4 ug/ml; incubation 19 h
[7] = tested on: K. pneumoniae 89; test: BLI potentiation MIC, K. pneumoniae 89; settings: BLI fixed 4 ug/ml; incubation 19 h
[8] = tested on: K. pneumoniae 101; test: BLI potentiation MIC, K. pneumoniae 101; settings: BLI fixed 4 ug/ml; incubation 19 h
[9] = tested on: K. pneumoniae 23; test: BLI potentiation MIC, K. pneumoniae 23; settings: BLI fixed 4 ug/ml; incubation 19 h
[10] = tested on: K. pneumoniae MP14; test: BLI potentiation MIC, K. pneumoniae MP14; settings: BLI fixed 4 ug/ml; incubation 19 h; K. pneumoniae ATCC700603
[11] = tested on: K. pneumoniae 5117; test: BLI potentiation MIC, K. pneumoniae 5117 (SHV-11, TEM-1); settings: BLI fixed 4 ug/ml; incubation 19 h

`NCCONC(=O)[C@@H]1CC[C@@H]2CN1C(=O)N2OS(=O)(=O)O` [OP-595] was tested, and the “MIC of LCB10-0200 with BLI” value ([1]; Meropenem, K. pneumoniae MP14) was 0.125 μg/mL, the “MIC of LCB10-0200 with BLI” value ([1]; P. aeruginosa ARC3506) was >64 μg/mL and the “MIC of LCB10-0200 with BLI” value [2] was <0.03125 μg/mL and <0.0312 μg/mL. The “MIC of Meropenem with BLI” value [2] was <0.0312 µg/mL, the “MIC of LCB10-0200 with BLI” value [3] was <0.03125 μg/mL and <0.0312 μg/mL and the “MIC of Meropenem with BLI” value [3] was <0.0312 µg/mL. For the same compound, the “MIC of LCB10-0200 with BLI” value [4] was <0.0312 μg/mL, the “MIC of LCB10-0200 with BLI” value [5] was <0.03125 μg/mL and <0.0312 μg/mL and the “MIC of LCB10-0200 with BLI” value [6] was <0.03125 μg/mL and <0.0312 μg/mL. The “MIC of LCB10-0200 with BLI” value [7] was <0.0312 μg/mL, the “MIC of LCB10-0200 with BLI” value [8] was <0.03125 μg/mL and <0.0312 μg/mL and the “MIC of Meropenem with BLI” value [8] was <0.0312 µg/mL. For the same compound, the “MIC of LCB10-0200 with BLI” value [9] was <0.0312 μg/mL, the “MIC of Meropenem with BLI” value [10] was 0.125 µg/mL and the “MIC of LCB10-0200 with BLI” value [11] was <0.0312 μg/mL.
